The results in this text go back to PMC5775216.

The chains behind the UniProt entries cited, without tags or fusion partners. Where a name states a change or a piece, a line headed by the entry shows the natural chain unless it says otherwise.
UniProt Q83RR0: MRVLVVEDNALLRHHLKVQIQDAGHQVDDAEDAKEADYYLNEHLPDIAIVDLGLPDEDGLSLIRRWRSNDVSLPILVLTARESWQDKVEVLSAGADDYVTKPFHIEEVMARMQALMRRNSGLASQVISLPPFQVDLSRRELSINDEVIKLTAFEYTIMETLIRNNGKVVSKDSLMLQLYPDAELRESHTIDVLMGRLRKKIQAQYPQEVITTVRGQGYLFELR

The exact form of at least one protein or probe is not confirmed.

In data set [1] the target is PhoP (phosphorylated, PhoP-P) (Shigella flexneri 2a 301 (Sf301)) (UniProt Q83RR0). Briefly: EMSA. The settings on record: acetylphosphate-phosphorylated, 0.16-1.6 uM; EMSA: Roche DIG Gel Shift Kit, 25 C 20 min, 6% native PAGE, buffer/pH not stated; recombinant protein; protein details: His-tag (pET-28a(+), BamHI/XhoI); label: digoxigenin (terminal transferase); probe letters rebuilt from the primers and the genome.

For data set [2], the target named is PhoP (footprinting) (Shigella flexneri 2a 301 (Sf301)) (UniProt Q83RR0). The data set is described as follows: DNase I footprinting. The settings on record: phosphorylation ambiguous, footprinting: 500 ng probe in 40 ul binding buffer (not specified), 30 C 30 min, DNase I 25 C 1 min, recombinant protein, residues 1-223, protein details: His-tag (pET-28a(+), BamHI/XhoI), label: FAM, probe letters rebuilt from the primers and the genome, part of a longer molecule.

As for “AATCACGTACTGAAATCGTTCTCAATCAACGTCATTTGTACATTTTGTGCGCTTTTCACTTTCAGAAGAACCTTAAGAAAACCTTAAGAGGCATTGTTTAGGTTTTGTTTAAGTTAATCGACCATACTGGAGATCGTCAGAAAATATTTCCAGGAGATGGCATGATTC (double strand) [yrbL promoter]”, in data set [1], the binding result was “binds”.

For the sequence “AGAAAGGCAGGCGTTAAAAGGCCTGATGCTGAAATGACGTCGGTGACGATCCATACTGCGGGCTACTGCCCTATACTCCATGGTTGTTAAACGGGAGTTAAACATATCAGAGACGCCTCTGATTTGGCAAAGATTTACCTTCCTTTGCAAACGAATGTGACAAGGATATTTTACCTTTCGAAATTTCTGATAATCGAAAGTTAAATTACGGATC (double strand) [yoaE promoter footprint probe]”, in data set [2], the binding result is recorded as “binds”.

As to “CCATATAACCTCCGGTAAGTGAAAAAAGCGCCGCAAATAATAAGGAGAATCCAATAATATTCGTAGCATTTATGGCGATATAATACCTGCTGGCAACTAAACCAACGATAAACCAGACTTTACCCATTGCTGAATGCACGGGTAAAGTTAGGCTCAAATAATTAAACAACACGTTATGGGACAACAG (double strand) [mgtA promoter footprint probe]”, the binding result in data set [2] (two protected regions) was “binds”.

Consider “CGGTAGATATAAAAACGTCACAATACACCGCGCTGTTTTTACTTACTATCAATCGTTTCTAAACAAGTTTTCATCAGGTATTCTACTGATGACTTGTTATGGAAGTGTTAAGGTAAAAAGATGGGGCTGGTAATCAAAGCCGCGCTCGGTGCGCTGGTAGTGCTGTTGATTGGTGTTTTAGCAAAAACGAAAAATTATTATATCGCCGGGCTGATTCCAC (double strand) [rstA promoter]”, for which the binding result in data set [1] is “binds”.

On to “CGTGAATACCATGCGGAATGACCGATTTTTACCGTTGGTAGTAAAACATTATCTTCAAATCAATAATCATCATGAATGTTTTGTTTATAATTGGTTGATCCTACTTTCATTATGATTTGCTCATATTTGGTAGAACATGTAACCATGGATTCACATATGCCATATACTTTGACCATGAGGGATGCT (double strand) [slyB promoter]”, for which the binding result in data set [1] was “binds”.

For “CTGTTGTCCCATAACGTGTTGTTTAATTATTTGAGCCTAACTTTACCCGTGCATTCAGCAATGGGTAAAGTCTGGTTTATCGTTGGTTTAGTTGCCAGCAGGTATTATATCGCCATAAATGCTACGAATATTATTGGATTCTCCTTATTATTTGCGGCGCTTTTTTCACTTACCGGAGGTTATATGG (double strand) [mgtA promoter]”, the binding result in data set [1] is “binds”.

Consider “GAGTACCTGTGTTGTTCTGAGGTGAACATATCACCTCTGTTCAGGTAGCCAAATTCAGTGTGCCACCTCAAGGTTCTTAGTGAGTCGTTTTTAAAAGATATGATAATATATCATTGTTTATGAATTGTTGATGTTTAATTTAGTAAATTATATCAAATATGCCATGGGTTTGCTATGTTATTCATCCAGTATCTGGAAATAAAATGCACCAGCTTTATTGGGTT (double strand) [shf promoter footprint probe]”, for which, in data set [2], the binding result is “binds”.

For “GAGTACCTGTGTTGTTCTGAGGTGAACATATCACCTCTGTTCAGGTAGCCAAATTCAGTGTGCCACCTCAAGGTTCTTAGTGAGTCGTTTTTAAAAGATATGATAATATATCATTGTTTATGAATTGTTGATGTTTAATTTAGTAAATTATATCAAATATGCCATGGGTTTGCTATGTTATTCATCCAGTATCTGGAAATAAAATGCACCAGCTTTATTGGGTT (double strand) [shf promoter]”, the binding result in data set [1] was “binds”.

Consider “GATCCGTAATTTAACTTTCGATTATCAGAAATTTCGAAAGGTAAAATATCCTTGTCACATTCGTTTGCAAAGGAAGGTAAATCTTTGCCAAATCAGAGGCGTCTCTGATATGTTTAACTCCCGTTTAACAACCATGGAGTATAGGGCAGTAGCCCGCAGTATGGATCGTCACCGACGTCATTTCAGCATCAGGCCTTTTAACGCCTGCCTTTCT (double strand) [yoaE promoter]”, for which the binding result in data set [1] was “binds”.

Turning to “GCCTCAAATCAGTGCCGGATGGCGATGCTGTCCGGCCTGCTTATTAAGATTATCCACTTTTTCTTTTTTCACTTTACCTCCCCTCCCCGCTGGTTTATTTAATGTTTACCCCCATAAACACATAATCGCGTTACACTATTTTAATAATTAAGACAGGGAGAAATAAAAATGCGCGT (double strand) [phoPQ promoter]”, the binding result in data set [1] is given as “binds”.

“GGAAACTTTGTGCTCTCAGTAAGTTAAATATAACTTTTACAGGAAATAAGATCAGCCATTTTTTTATAAACATAAGCTATACGCTGTGCGAAAATATATTCGTGCTGCATTTACTTATTATCAATTAACTGTTATGCAAAACTACTTTGTGGATAAATTTTGGTCCTACCAAATCTGGCAGTTTTTGCGCTAAGAAACAGTCTGTCATCATTTCATTAGTATACTGAAATTGAAATAATCGCAG (double strand) [yhiW promoter]”: in data set [1], the binding result is “binds”.

For “TAAAGTGAAAGAGCCGTCACGAATCAATTTCGACACTGAGGTTATAACCTGGTTTTCTGTATATGTCATGTTGATGGAAAATATCAAAATCAGATATTTTTATTTCAATACAATGAGTTACAGATGCATCAGATACTGCAATTAGGAAATTTTTATTAAATCGACTGCATTCTTAGACGCGTTTTTGGCATAGATTGATAGCAGGGGAT (double strand) [hdeA promoter]”, the binding result in data set [1] is listed as “binds”.

For “TCTACTACTAGCATAGCAAAGCTACAATTAACATAACCTTAATAGACCCAACATAAAGAATAATCTGAATAGCTGCTCTATTTATTTCCGCTTGTTCAAGTTAAATATTTCCGCGCATCGATTAAAGATGATGCGTCGTTTTCTGCGATGGGAATAGTCAAAAAAGAAAAACCAAGTCTTTTTTGATGACAAAATGCAATCAAGGAAAAATTATTTTATTTTTTTTACGAGATACAACAATCATCT (double strand) [pagP promoter]”, in data set [1], the binding result is reported as “binds”.

For “TTATCGAACATATAGCTTTCCCCCTCTTTTTTTCAAAGCAAGACACAGGTAAATTTCTCCCGTTGCATTGATATATAACACAGCTCTCATGTTTTGGTTGAGGCTTTGTTTAATATGTTTTTGCATATATCGTCCCTTTATTCCGGATAAAACGGAATCTTTTCAGGGGTTTATCAACCACTTACTGAT (double strand) [icsA promoter]”, the binding result in data set [1] is “binds”.
